“Also recorded” adds a separate entry of the source.
Tested on: RadLV
Experiment: 0.1% SDS denaturation / SDS-PAGE and sucrose gradient of hypericin-treated RadLV
Settings: 35S-methionine labelled RadLV

With `Cc1cc(O)c2c(=O)c3c(O)cc(O)c4c5c(O)cc(O)c6c(=O)c7c(O)cc(C)c8c1c2c(c34)c(c78)c65` [hypericin] the “behaviour of treated virus on SDS-polyacrylamide gel electrophoresis / sucrose gradient” value was “aggregates of virus components can be observed to accumulate at the top of the gel; also recorded: hypericin comigrates with the virus particles”.
